Compound potency records, mixed from different reports. Data source: NIAID ChemDB in PubChem.

All rows: whole-cell or culture tests; organism: Hepatitis C virus; read-out: EC50

An empty or dashed field is not shown. Neighbouring rows are from separate reports. a–b is a range or a potency band. ECn: concentration that inhibits the pathogen or its effect by n%.

smiles	method	cell line	mutations	strain	value
S=C(Nc1ccccc1)Nc1ccc2c(c1)Cc1cc(Br)ccc1-2	reporter gene / fluorescence	Ava5-EG(delta4AB)SEAP	-	-	0.001–1 µM
CCOc1nc(NCc2ccc(F)c(F)c2F)nc2ccc(-c3ccc(F)cc3)nc12	replicon	-	-	-	<0.1 µM
CC1CCC(C(=O)N(CC2CC2)c2cc(-c3ccc(NC(=O)c4cn(C)cn4)cc3)sc2C(=O)O)CC1	replicon	-	-	1a	<0.5 µM
CC1(C)CC(=O)C2=C(C1)Nc1c(O)cccc1N(C(=O)CC(=O)NS(=O)(=O)C1CC1)C2c1ccc(OCc2ccccc2)cc1Cl	luciferase / reporter gene / replicon	-	-	1b	40.42 µM
NC(=O)C1Cc2ccccc2-c2c(C3CCCCC3)c3ccc(C(=O)NC4(C(=O)Nc5ccc(/C=C/C(=O)O)cc5)CCCC4)cc3n2C1	replicon	Huh7	-	-	0.01–1 µM
CCCCCCCCCc1ccc(N(C(=O)OCCOP(=O)(O)O)c2nc(-c3cccnc3)c(F)s2)cc1C(F)(F)F	-	-	-	-	<1 µM
CNC(=S)Nc1cccc(OCCCCCc2ccccc2)c1	reporter gene / fluorescence	Ava5-EG(delta4AB)SEAP	-	-	0.001–1 µM
Cc1ccc(C(=O)Nc2ccc(-c3cc(N(C(=O)C4CCC(C)CC4)C(C)C)c(C(=O)O)s3)cc2)cn1	replicon	-	-	1a	>0.5 µM
O=C1Cn2c(c(C3CCCCC3)c3ccc(C(=O)NS(=O)(=O)N4CCCC4)cc32)-c2ccccc2N1	replicon	Huh7	-	-	0.01–1 µM
CCCCCOc1ccc2c(c1)[nH]c(=O)c(=O)n2-c1nc(-c2cccnc2)cs1	-	-	-	-	>10 µM
CNC(=O)c1c(-c2ccncc2)oc2ccc(OC(C)C)cc12	replicon	Huh7	-	-	>30 µM
COCCN(C(=O)C1CCC(C)CC1)c1cc(-c2ccc(NC(=O)c3cn(C)cn3)cc2)sc1C(=O)O	replicon	-	-	1b	<0.5 µM
N#Cc1ccc(-c2ccc3nc(NCc4ccc(S(N)(=O)=O)cc4)nc(NCC(F)(F)F)c3n2)cc1	replicon	-	-	-	<0.1 µM
CNC(=O)c1c(-c2ccccc2)oc2ccc(CO)cc12	replicon	Huh7	-	-	>100 µM
N[C@@H](CO)C(=O)Nc1ccc(-c2ccc3nc(NCc4ccc(S(N)(=O)=O)cc4)nc(NC4CC4)c3n2)cc1	replicon	-	-	-	<0.1 µM
CN(C)CCNC(=O)C1Cc2ccccc2-c2c(C3CCCCC3)c3ccc(C(=O)O)cc3n2C1	replicon	Huh7	-	-	0.01–1 µM
COC(=O)N[C@H](C(=O)N1CCC[C@H]1c1ncc(-c2ccc(-c3ccc(-c4cnc([C@@H]5CCCN5C(=O)[C@@H](NC(=O)OC)C(C)C)[nH]4)cc3)cc2)[nH]1)C(C)C	luciferase	ET	L31V	1b	0.000098 µM
CCCCCN(C)c1ccc(N(C(=O)c2cc(C)on2)c2nc(-c3cccnc3)cs2)cc1C(F)(F)F	-	-	-	-	<1 µM
Nc1nc(O[C@H]2CCOC2)c2nc(-c3ccc(C(=O)NCCN4CCOCC4)cc3)ccc2n1	replicon	Huh7	-	-	<0.3 µM
CC1(C)CC(=O)C2=C(C1)Nc1c(O)cccc1NC2c1ccc(OCc2ccccc2)cc1F	luciferase / reporter gene / replicon	-	-	1b	3.71 µM
NC(=S)Nc1cccc(OCCCCCOc2cccc(Oc3ccccc3)c2)c1	reporter gene / fluorescence	Ava5-EG(delta4AB)SEAP	-	-	0.001–1 µM
CCOc1nc(N)nc2ccc(-c3ccc(NC(=O)[C@H](C)N)c(OC)c3)nc12	replicon	Huh7	-	-	<0.3 µM
C[C@@H]1CN(C(=O)C2=Cc3ccccc3-c3c(C4CCCCC4)c4ccc(C(=O)O)cc4n3C2)C[C@H](C)O1	replicon	Huh7	-	-	0.01–1 µM
CNC(=O)c1c(-c2ccc(F)cc2)oc2cc(-c3cc[nH]c3)c(OC)cc12	replicon	Huh7	-	-	<1 µM
NS(=O)(=O)c1ccc(CNc2nc(Nc3ccc(-n4cncn4)cc3)c3nc(-c4ccc(F)cc4)ccc3n2)cc1	replicon	-	-	-	<0.1 µM
S=C(NCCCCc1ccccc1)Nc1ccc2c(c1)Cc1cc(Br)ccc1-2	reporter gene / fluorescence	Ava5-EG(delta4AB)SEAP	-	-	0.001–1 µM
CCCCCN(C)c1ccc(N(C(=O)C(=O)OC)c2nc(-c3cccnc3)cs2)cc1C(F)(F)F	-	-	-	-	<1 µM
CN1CCN(c2ccc(CNc3nc(NCC(F)(F)F)c4nc(-c5ccc(F)cc5)ccc4n3)cc2)CC1	replicon	-	-	-	<0.1 µM
Cc1cc(C(=O)Nc2ccc(-c3cc(N(C(=O)C4CCC(C)CC4)C(C)C)c(C(=O)O)s3)cc2)ccn1	replicon	-	-	1a	<0.5 µM
CC1(C)CC(=O)C2=C(C1)Nc1c(O)cccc1N(C(=O)CCC(=O)NCc1cccnc1)C2c1ccc(OCc2ccccc2)cc1Cl	luciferase / reporter gene / replicon	-	-	1b	40.42 µM
CCOC(=O)c1csc(CN(c2cc3oc(-c4ccc(F)cc4)c(C(=O)NC)c3cc2OC(C)C)S(C)(=O)=O)n1	replicon	Huh7	-	-	<10 µM
CCOc1nc(NCc2ccc(F)cc2)nc2ccc(-c3cnc(N)cn3)nc12	replicon	-	-	-	<0.1 µM
CC1CCC(C(=O)N(c2cc(-c3ccc(NC(=O)c4cn(C)cn4)cc3)sc2C(=O)O)C(C)C)CC1	replicon	-	-	1a	<0.5 µM
CCOc1cc2c(C(=O)NC)c(-c3ccc(F)cc3)oc2cc1N(CC)CC	replicon	Huh7	-	-	<1 µM
O=C(O)c1ccc2c(C3CCCCC3)c3n(c2c1)C/C=C\COc1ccccc1-3	replicon	Huh7	-	-	1–10 µM
CCOc1nc(N)nc2ccc(-c3ccc(C(=O)NC(C)C)cc3)nc12	replicon	Huh7	-	-	>1 µM
CC1CCCCN1C(=O)CCC(=O)N1c2cccc(O)c2NC2=C(C(=O)CC(C)(C)C2)C1c1ccc(OCc2ccccc2)cc1Cl	luciferase / reporter gene / replicon	-	-	1b	2.01 µM
CNC(=O)c1c(-c2ccc(F)cc2)oc2cc(-c3nn[nH]n3)c(OC(C)C)cc12	replicon	Huh7	-	-	>30 µM
Cn1cnc(S(=O)(=O)NC(=O)c2ccc3c(C4CCCCC4)c4n(c3c2)CCCc2ccccc2-4)c1	replicon	Huh7	-	-	1–10 µM
NC(=S)Nc1cccc(OCCCCCOc2ccc(N3CCSCC3)cc2)c1	reporter gene / fluorescence	Ava5-EG(delta4AB)SEAP	-	-	0.001–1 µM
O=C(NC1(C(=O)Nc2ccccc2)CCCC1)c1ccc2c(C3CCCCC3)c3n(c2c1)CCOc1ncccc1-3	replicon	Huh7	-	-	0.01–1 µM
CC1(C)CC(=O)C2=C(C1)Nc1c(O)cccc1NC2c1[nH]c(-c2ccccc2)nc1Cl	luciferase / reporter gene / replicon	-	-	1b	34.72 µM
COC1c2ccccc2-c2c(C3CCCCC3)c3ccc(C(=O)O)cc3n21	replicon	Huh7	-	-	>10 µM
CNC(=O)c1c(-c2ccc(F)cc2)oc2c(C)cc(OC)cc12	replicon	Huh7	-	-	<10 µM

The first 5 rows once more:

{"smiles": "S=C(Nc1ccccc1)Nc1ccc2c(c1)Cc1cc(Br)ccc1-2", "method": "reporter gene / fluorescence", "cell line": "Ava5-EG(delta4AB)SEAP", "value": "0.001–1 µM"}
{"smiles": "CCOc1nc(NCc2ccc(F)c(F)c2F)nc2ccc(-c3ccc(F)cc3)nc12", "method": "replicon", "value": "<0.1 µM"}
{"smiles": "CC1CCC(C(=O)N(CC2CC2)c2cc(-c3ccc(NC(=O)c4cn(C)cn4)cc3)sc2C(=O)O)CC1", "method": "replicon", "strain": "1a", "value": "<0.5 µM"}
{"smiles": "CC1(C)CC(=O)C2=C(C1)Nc1c(O)cccc1N(C(=O)CC(=O)NS(=O)(=O)C1CC1)C2c1ccc(OCc2ccccc2)cc1Cl", "method": "luciferase / reporter gene / replicon", "strain": "1b", "value": "40.42 µM"}
{"smiles": "NC(=O)C1Cc2ccccc2-c2c(C3CCCCC3)c3ccc(C(=O)NC4(C(=O)Nc5ccc(/C=C/C(=O)O)cc5)CCCC4)cc3n2C1", "method": "replicon", "cell line": "Huh7", "value": "0.01–1 µM"}